Results of unrelated studies side by side (data: NIAID ChemDB).

Common to all: growth or infection tests; species: Varicella zoster virus; read by: plaque count; measure: EC50

Lines come from different laboratories, so protocols vary. ECn: concentration that inhibits the pathogen or its effect by n%.

smiles | cells | strain | result
Cc1cccc2c1OP(=O)(OC[C@H]1O[C@@H](n3cc(/C=C/Br)c(=O)[nH]c3=O)C[C@@H]1OC(=O)C(C)(C)C)OC2 | HELF | OKA | 0.076 µg/mL
O=c1[nH]c(=O)n([C@H]2C[C@H](O)[C@@H](CO)O2)cc1-c1ccc(Cl)s1 | HEL | OKA (TK+) | 0.21 µM
CC(=O)O[C@H]1C[C@H](n2cc(/C=C/Br)c(=O)[nH]c2=O)O[C@@H]1COP1(=O)OCc2cccc(C)c2O1 | HELF | OKA | 0.04 µg/mL
O=C(O)CP(=O)(O)O | HEL | BVDU-resistant | 8.3 µg/mL
O=c1[nH]c(=O)n([C@H]2C[C@H](O)[C@@H](CO)O2)cc1/C=C/Br | HEL | OKA | 0.0005 µg/mL
Nc1ncnc2c1ncn2C[C@H]1COP(=O)(O)CO1 | HEL | YS/R (TK-) | 0.04 µM
Nc1nc(N)c2ncn(C[C@H]3CC[C@@H](CO)C3)c2n1 | HEL | OKA | >50 µg/mL
O=c1[nH]c(=O)n([C@@H]2O[C@H](CO)[C@@H](O)[C@@H]2O)cc1/C=C/Br | HEL | PFA-resistant/A | 0.00013 µg/mL
Nc1ncnc2c1ncn2[C@@H]1O[C@H](CO)[C@H]1CO | HEL | YS (TK+) | 5.6 µM
C[C@@H](N)C(=O)O[C@H]1C[C@H](n2cc(/C=C/Br)c(=O)[nH]c2=O)O[C@@H]1COP1(=O)OCc2ccccc2O1 | HELF | OKA | 0.031 µg/mL
Nc1ncc2c(ncn2COC(CO)CO)n1 | HEL | 07/1 (TK-) | 0.7 µM
Nc1nc(N)c2nnn(C[C@H]3CC[C@@H](CO)C3)c2n1 | HEL | YS/R (TK-) | 40 µg/mL
Nc1ncnc2c1ncn2C[C@@H](CO)OCP(=O)(O)O | HEL | OKA | 0.015 µg/mL
Nc1nc2c(ncn2C[C@H]2CC[C@@H](CO)C2)c(=O)[nH]1 | HEL | YS | >200 µg/mL
Nc1nc2c(ncn2CCC(CO)CO)c(=O)[nH]1 | HEL | OKA | 0.56 µg/mL
Cc1cn([C@@H]2O[C@H](CO)[C@@H](O)[C@@H]2O)c(=O)[nH]c1=O | HEL | YS (TK+) | 0.29 µM
Cc1cccc2c1OP(=O)(OC[C@H]1O[C@@H](n3cc(/C=C/Br)c(=O)[nH]c3=O)C[C@@H]1OC(=O)[C@@H]1CCCN1)OC2 | HELF | OKA | 0.032 µg/mL
Nc1nc2c(ncn2[C@@H]2O[C@H](CO)[C@H]2CO)c(=O)[nH]1 | HEL | YS (TK+) | 0.18 µM
Cc1cccc2c1OP(=O)(OC[C@H]1O[C@@H](n3cc(/C=C/Br)c(=O)[nH]c3=O)C[C@@H]1OC(=O)[C@@H](C)N)OC2 | HELF | OKA | 0.016 µg/mL
Nc1nc2c(nnn2C[C@H]2CC[C@@H](CO)C2)c(=O)[nH]1 | HEL | 07/1 (TK-) | >50 µg/mL
Nc1ncnc2c1ncn2[C@@H]1O[C@H](CO)[C@@H](O)[C@@H]1O | HEL | 07/1 (TK-) | 11.2 µM